Sequence variants of PSTVd stem 15 after infection

Data from the supplement of Wu et al. 2024, doi:10.1371/journal.ppat.1012142.

Region: stem 15 of PSTVd (intermediate strain), upper and lower strand joined, each 5' to 3', the first 9 letters being the upper strand. Wild type: CUGGAGCGAUCGCUUCGG. Varied positions (N): CUGGAGCGAUNGNNUNNG.

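A pool of all variants was put on leaves of three Nicotiana benthamiana plants. Progeny were sequenced from the inoculated region (day 5), the margin of the inoculated leaf (day 10) and systemic leaves (day 12).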

Values are reads per thousand in the sample; higher means more abundant, 0 means not found. Each site shows the three plants. "Pool" is the share in the plasmid pool used as inoculum, on the same scale. The inoculated region was read from the minus strand, the other sites from the plus strand. For reference, wild type rose from 10.2 per thousand in the pool to 285, 367, 312 (inoculated region), 785, 865, 782 (leaf margin) and 854, 898, 915 (systemic leaves).

sequence,pool,inoculated region,leaf margin,systemic leaves
CUGGAGCGAUUGUUUUCG,0.857,3.27 1.72 3.03,0.786 0.600 1.89,0.851 0.465 0.399
CUGGAGCGAUUGUGUUCG,0.743,2.27 1.15 1.77,0.124 0.0818 0.0317,0 0 0
CUGGAGCGAUCGCCUACG,0.711,0.313 0.272 0.316,0.0827 0 0.0159,0 0 0
CUUGAGCGAUGGUUUGCG,0.0162,0 0 0,0 0 0,0 0 0
CGGGAGCGAUGGCAUGAG,0.0162,0 0 0,0 0 0,0 0 0
CUGGAGCGAUUGCAUCCG,0.646,0.450 0.168 0.242,0.124 0 0.0476,0 0 0
CUGGAGCGAUAGGAUGUG,0.663,0.254 0.314 0.316,0.124 0.136 0.0634,0 0 0
CUGGAGCGAUCGUCUAAG,0.792,2.17 0.754 1.53,0.0620 0 0.0317,0 0 0
CUGGAGCGAUAGUCUCAG,0.857,1.94 0.921 1.58,0.0620 0.0273 0.904,0 0 0
CUGGAGCGAUAGAUUCCG,1.02,0.254 0.188 0.354,0 0.0273 0.0317,0 0 0
CUGGAGCGAUUGGGUAUG,0.840,0.235 0.126 0.354,0.0620 0.0273 0.0159,0 0 0
CUGGAGCGAUAGUUUUUG,0.679,0.196 0.377 0.465,0 0.0545 0,0 0 0
CUGGAUCGAUUGCGUAGG,0.0162,0 0 0,0 0 0,0 0 0
CUGGAGCGAUCGACUAAG,1.05,0.176 1.07 0.428,0 0.0545 0.0159,0 0 0
CUGGAGCGAUUGGUUUAG,2.55,3.64 2.66 2.96,0.558 0.382 0.840,0.931 0.687 0.518
CUGGAGCGAUGGGCUCGG,1.07,0.411 0.293 0.316,0.145 0.0273 0,0 0 0
CUGGAGCGAUGGGUUACG,0.937,0.254 0.209 0.372,0.103 0 0,0 0 0
CUGGAGCGAUAGCAUCGG,0.679,0.313 0.230 0.354,0.0620 0.0545 0,0 0 0
AUGGAGCGAUAGUGUUCG,0.0162,0 0 0,0 0 0,0 0 0
CUGGAGCGAUUGCCUUUG,0.808,1.88 1.11 1.56,0.103 0 0.919,0 0 0
CUGGAGCGAUUGUUUCAG,1.15,2.19 1.03 1.45,0.744 0.436 0.951,0.812 0.576 0
CUGGAGCGAUUGAAUGUG,0.937,0.391 0.293 0.279,0.0414 0.0545 0.0159,0 0 0
CUGGAGCGAUUGCAUACG,1.02,0.411 0.209 0.205,0.0620 0.0273 0.0159,0 0 0
CUGGAGCGAUAGAUUUGG,0.905,0.196 0.147 0.279,0 0.0273 0.0317,0 0 0
CUGGAGCGAUGGACUCGG,0.905,0.391 0.272 0.354,0.103 0.0545 0.0159,0 0 0
CUGGAGCGAUAGGGUCUG,0.679,0.196 0.188 0.205,0.103 0 0,0 0 0
CUGGAGCGAUAGCGUCCG,0.711,0.294 0.209 0.112,0 0 0.0159,0 0 0
CUGGAGCGAUUGGGUCCG,0.824,0.254 0.356 0.335,0.0414 0.0545 0.0159,0 0 0
CUGGAGCGAUGGCUUAUG,1.07,0.235 0.272 0.261,0.0620 0 0.0317,0 0 0
CUGGAGCGAUCGACUCUG,0.776,0.313 0.251 0.354,0.0414 0.0273 0.0317,0 0 0
CUGGGGCGAUCGCUUCGG,0.0162,0.0783 0.209 0.149,0.351 0.327 0.555,0.317 0.332 0.717
CUGGAGCGAUCGGCUCAG,0.921,0.196 0.314 0.186,0.145 0 0.0634,0 0 0
CUGGAGCAAUAGGCUCCG,0.0162,0 0 0,0 0 0,0 0 0
CUGGAGCGAUAGAUUUCG,0.711,0.235 0.314 0.279,0.0827 0.0273 0.0317,0 0 0
CUGGAGCGAUUGCAUGAG,1.03,0.294 0.921 0.261,0.0620 0.0273 0.0159,0 0 0
CUGGGGCGAUCGUUUUGG,0.0162,0 0 0,0 0 0,0 0 0
CUGGAGCGAUAGGAUAUG,0.986,0.294 0.293 0.503,0.0827 0.0545 0.0159,0 0 0
CUGGAGCGAUGGGUUGCG,0.857,0.411 0.335 0.223,0.124 0.0273 0.0159,0 0 0
CUGGAGCGAUUGUAUUUG,1.23,2.04 1.55 1.95,0.579 0.382 0.967,0.832 0.665 0.0199
CUGGAGCGAUUGCUUGCG,0.743,0.294 0.147 0.335,0.0620 0.0273 0.0317,0 0 0
CUGGAGCGAUGGAUUUGG,0.921,0.294 0.272 0.279,0.0207 0.0818 0.0159,0 0 0
CUGGAGCGAUCGACUCGG,0.937,0.430 0.335 0.242,0.0827 0.0273 0,0 0 0
CUGGAGCGAUCGUGUUGG,0.792,0.157 0.188 0.372,0.145 0.0273 0.0159,0 0 0
CUGGAGCGAUCGAAUCGG,1.78,1.39 1.30 2.07,0 0.0273 0,0.693 0 0.0199
CUGGAGCGAUGGGAUGUG,0.824,0.137 0.230 0.279,0.0827 0 0,0 0 0
AUGGAGCGAUAGUUUGGG,0.0162,0 0 0,0 0 0,0 0 0
CUGGAGCGAUGGUGUGUG,0.937,0.254 0.419 0.242,0.0207 0 0.0317,0 0 0
CUGGAGCGAUUGCCUGGG,0.986,0.333 0.251 0.279,0.0620 0 0.0159,0 0 0
CUGGAGCGAUUGUGUGGG,0.954,0.430 0.314 0.298,0 0.0545 0.0159,0 0 0
CUGGAGCGAUUGGAUCUG,1.66,0.920 1.30 0.763,0.0827 0.0818 0.0476,0 0 0
CUGGAGCGAUAGUUUCCG,0.905,0.294 0.272 0.223,0.0620 0.0273 0.0159,0 0 0
CUGGAGCGAUAGUCUCUG,0.970,0.254 0.209 0.298,0.103 0 0.0317,0 0 0
CUGGAGCGAUCGGGUCUG,0.760,0.352 0.147 0.223,0.103 0.0273 0.0159,0 0 0
CUGGAGCGAUGGACUCUG,0.792,0.294 0.356 0.186,0.165 0 0.0317,0 0 0
CUUGAGCGAUCUCUUCGG,0.0162,0 0 0,0 0 0,0 0 0
CUGGAGCGAUCGUAUCCG,0.598,0.215 0.356 0.186,0.145 0 0.0159,0 0 0
CUGGAGCGAUAGCGUAUG,0.824,0.274 0.356 0.354,0.0414 0.0273 0,0 0 0
CUGGAGCGAUCGCAUCAG,0.921,0.294 0.105 0.279,0 0.0545 0.0317,0 0 0
CUGGAGCGAUAGCGUGAG,0.792,0.215 0.314 0.335,0.0620 0.0545 0,0 0 0
CUGGAGCGAUUGGAUUCG,0.873,0.352 0.398 0.298,0 0 0.0317,0 0 0
CUGGAGCGAUUGUAUAGG,0.954,1.96 1.30 0.298,0.0414 0 0.0317,0 0 0
CUGGAGCGAUCGCGUUUG,0.711,0.196 0.209 0.298,0.0207 0 0.0317,0 0 0
CUGGAGCGAUCGCGUAGG,0.889,0.294 0.293 0.428,0 0 0.0476,0 0 0
CUGGAGCGAUGGACUUCG,0.808,0.294 0.272 0.298,0.0414 0.0545 0,0 0 0
CGGGAGCGAUCGUCUUAG,0.0162,0 0 0,0 0 0,0 0 0
CUGGAGCGGUGGCAUGGG,0.0162,0 0 0,0 0 0,0 0 0
CUGGAGCGAUAGAAUGAG,1.65,1.33 1.15 1.08,0 0.0273 0.0159,0 0.310 0

A selection of 6 entries from above:

CUGGAGCGAUUGUAUUUG (pool 1.23) read inoculated region 2.04 1.55 1.95; leaf margin 0.579 0.382 0.967; systemic leaves 0.832 0.665 0.0199.
CUGGAGCGAUUGAAUGUG (pool 0.937) read inoculated region 0.391 0.293 0.279; leaf margin 0.0414 0.0545 0.0159; systemic leaves 0 0 0.
CUGGAGCGAUUGUUUCAG (pool 1.15) read inoculated region 2.19 1.03 1.45; leaf margin 0.744 0.436 0.951; systemic leaves 0.812 0.576 0.
CUGGAGCGAUUGUGUGGG (pool 0.954) read inoculated region 0.430 0.314 0.298; leaf margin 0 0.0545 0.0159; systemic leaves 0 0 0.
CUGGAGCGAUUGCUUGCG (pool 0.743) read inoculated region 0.294 0.147 0.335; leaf margin 0.0620 0.0273 0.0317; systemic leaves 0 0 0.
CUGGAGCGAUUGGAUUCG (pool 0.873) read inoculated region 0.352 0.398 0.298; leaf margin 0 0 0.0317; systemic leaves 0 0 0.

Sequences that differ at fixed positions probably stem from PCR or sequencing errors, and defective variants can be carried along by functional ones. With 36,693-63,082 reads a sample, very low values are single reads.